For 1 substance, response (PLA signals/cell) results are on record in publication PMC10132805.

The assay concerns the target endogenous clathrin (UniProt Q00610).

“Nsp3 (EEEV) wt, full length, Flag-tagged F1774A; D1775A” registered a response (PLA signals/cell) of 30.
